Source: PubChem BioAssay AID1224833 (University of Georgia, 2016)

Purpose: 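Human genes whose knock-down alters rotavirus replication in monkey cells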 (primary screen)
Cells: monkey MA104 kidney cells
Reagents: siRNA pool against human genes, 50 nM
Time to read-out: 48 h knock-down before infection; read 24 h after infection
Treatment: infection with rotavirus strain RV3 two days after transfection; infectious dose for this stage not given
Measured: 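Rotavirus antigen per well by fluorescent immunoassay, normalised to non-targeting control wells on each plate and given as a standard z-score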
Reading the numbers: z-score vs non-targeting control: higher = more rotavirus replication than with non-targeting control
Rule for the call: In these data the active calls have z-score vs non-targeting control at about -1 or lower, or at about 1 or higher
Meaning of the calls: active = z-score beyond 1 either way; inactive = z-score within 1 of zero
In all, the deposit lists about 12,000 reagents; this is an unselected part. In the full data, about 5,600 (46%) were called active. 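Active calls cover z-scores past 1 in both directions, so they include lowered as well as raised rotavirus replication.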 No sequences are given here.

| Target gene | z-score vs non-targeting control | outcome |
| --- | --- | --- |
| SELENOT | 0.0718 | inactive |
| NPPA | -0.788 | inactive |
| SHC2 | -1.37 | active |
| CD300LD | -0.0999 | inactive |
| IWS1 | 0.979 | inactive |
| IQUB | 0.813 | inactive |
| MTG2 | 0.482 | inactive |
| BDH1 | -1.25 | active |
| UBIAD1 | -1.14 | active |
| MYO9A | -1.63 | active |
| GPR18 | 2.55 | active |
| GHRH | -1.44 | active |
| VCY | 1.32 | active |
| CCSER2 | -0.614 | inactive |
| RAD51AP1 | 3.16 | active |
| FOXD3 | -1.74 | active |
| CAST | -1.55 | active |
| RRP36 | -2.23 | active |
| NR1D1 | 0.791 | inactive |
| TM2D2 | -0.501 | inactive |
| OR6C76 | -0.807 | inactive |
| VWA1 | -0.343 | inactive |
| NFATC1 | -2.8 | active |
| ZGRF1 | 1.11 | active |
| YWHAB | 0.0357 | inactive |
| NKAP | -0.563 | inactive |
| CDAN1 | -0.211 | inactive |
| MRPL11 | -1.56 | active |
| C6orf47 | -0.327 | inactive |
| ALG5 | 1.55 | active |
| SULT2B1 | -0.331 | inactive |
| PYY | 0.687 | inactive |
| DROSHA | -1.34 | active |
| SPAG11A | -1.64 | active |
| KIRREL2 | 0.116 | inactive |
| BRCA2 | 0.983 | inactive |
| LSM11 | -0.371 | inactive |
| HLA-G | -0.804 | inactive |
| IQGAP1 | 1.77 | active |
| HSD17B8 | -1.32 | active |
| GZMM | 2.14 | active |
| TTR | -2.42 | active |
| BID | -2.82 | active |
| DNAJA4 | -0.768 | inactive |
| DYDC1 | 1.43 | active |
| OGDHL | -1.54 | active |
| HDDC2 | -1.51 | active |
| VPS13B | 0.448 | inactive |
| ANKRD17 | 1.28 | active |
| SIGLEC8 | 0.358 | inactive |
| SPATA6 | -0.601 | inactive |
| HOXD9 | 1.14 | active |
| ZNF570 | 1.28 | active |
| HOMER3 | 1.28 | active |
| CENPO | 0.539 | inactive |
| IZUMO1R | -2 | active |
| SERGEF | 0.442 | inactive |
| GTPBP6 | -0.927 | inactive |
| ACTR1A | -0.694 | inactive |
| ZNF558 | -0.928 | inactive |
| DIP2B | -2.52 | active |
| LYAR | 1.35 | active |
| LYRM2 | 1.77 | active |
| OAT | -1.52 | active |
| RWDD2B | 0.598 | inactive |
| KAT6B | -0.72 | inactive |
| TNNC1 | -0.294 | inactive |
| CHCHD2 | -0.362 | inactive |
| FCRL4 | -0.667 | inactive |
| KRTAP25-1 | 1.12 | active |
| GARS1 | -2.98 | active |
| DCAF1 | -0.551 | inactive |
| CD9 | -0.574 | inactive |
| DRAM2 | 2.06 | active |
| NCBP2 | -0.0534 | inactive |
| MPDZ | 1.03 | active |
| OR1L1 | 0.14 | inactive |
| FOS | -1.63 | active |
| ALG3 | -1.62 | active |
| DHX16 | -1.11 | active |
| ANKZF1 | 1.03 | active |
| CEP43 | 0.212 | inactive |
| EFR3A | -1.08 | active |
| PCNX1 | 0.275 | inactive |
| NR2F1 | -1.09 | active |
| SLC33A1 | -1.08 | active |
| GNGT2 | 0.864 | inactive |
| IPCEF1 | 0.432 | inactive |
| HINT2 | -1.19 | active |
| MIEF1 | 1.81 | active |
| XKR5 | -1.34 | active |
| VSIG8 | -2.01 | active |
| EIF5A | -1.16 | active |
| CCDC42 | 1.51 | active |
| MTURN | 0.716 | inactive |
| DCTN5 | -0.541 | inactive |
| REN | 0.81 | inactive |
| ZMYM2 | 0.549 | inactive |
| MMADHC | -0.169 | inactive |
| NR1H3 | -0.927 | inactive |
| GNG11 | -0.0944 | inactive |
| SNED1 | 0.818 | inactive |
| CLEC4D | -0.705 | inactive |
| FOXP2 | 0.714 | inactive |
| TGOLN2 | -1.88 | active |
| SPNS2 | -0.993 | inactive |
| AGAP6 | -1.89 | active |
| ZP1 | -1.82 | active |
| PSMD2 | 0.422 | inactive |
| PROSER1 | -0.765 | inactive |
| SLC25A40 | 0.979 | inactive |
| NRIP3 | -1.29 | active |
| NLRP7 | 1.04 | active |
| APOL4 | 0.89 | inactive |
| POP1 | -0.816 | inactive |
| BLZF1 | -1.17 | active |
| H2AX | 0.533 | inactive |
| ACSL3 | -1.13 | active |
| JOSD2 | 2.3 | active |
| RABEP1 | 0.0246 | inactive |
| WASHC4 | -0.752 | inactive |
| HEXB | 0.891 | inactive |
| PRR25 | -1.86 | active |
| PLEK2 | -0.624 | inactive |
| MAD2L1BP | 0.14 | inactive |
| AFM | -0.77 | inactive |
| ACOT11 | 0.934 | inactive |
| VMP1 | -0.455 | inactive |
| PHC1 | 1.1 | active |
| NDRG2 | -1.9 | active |
| EFS | -0.151 | inactive |
| GLUL | -2.27 | active |
| DCAKD | -0.607 | inactive |
| INCENP | 0.934 | inactive |
| PARP6 | -1.21 | active |
| D2HGDH | 1.45 | active |
| CPNE5 | -0.794 | inactive |
| TACR3 | -0.558 | inactive |
| TCF4 | -0.974 | inactive |
| RASSF2 | 0.756 | inactive |
